Results: patent US20230013669A1, “Antibacterial Treatment Using a Cannabinoid and an Active Agent” (priority 2019, published 2023)
Several values for one entry are separate records, joined by “and”; a condition that tells them apart may be missing. Equal values may be shown once.

Assays:
Assay in all cases: Synergy of cannabidiol with cell-wall disrupting agent (CBD MIC in combination, FICI)
Type in all cases: cell-based
[1] = test system: Acinetobacter baumannii 03.021.1 (GN_038), Colistin resistant
Experimental: (§1) The compounds were stored short term at 4° C.
(§2) Analysis was performed using Microsoft Excel.

[2] = test system: Acinetobacter baumannii 03.021.1 (GN_039), Colistin resistant
Experimental: as §1, §2

[3] = test system: Pseudomonas aeruginosa FADDI-PA067 (GN_177), Polymyxin resistant; settings: Example 8, CBD + MCC_00636, calculated with CBD MIC 256 μg/mL
Experimental: as §1, §2

[4] = Example 8, CBD + MCC_00636, calculated with CBD MIC 256 μg/mL
[5] = Example 9, CBD + MCC_09222, calculated with CBD MIC 256 μg/mL, listed as CBD

## C=C(C)C1CCC(C)=CC1c1c(O)cc(CCCCC)cc1O (centres unmarked) [Cannabidiol, 2-[3-methyl-6-(1-methylethenyl)-2-cyclohexen-1-yl]-5-pentyl-1,3-benzenediol]
[1]; [4]
  FICI range: 0.25-1.06
[1]; [5]
  FICI range: 0.07-1.03
[2]; [4]
  FICI range: 0.14-1.06
[2]; [5]
  FICI range: 0.07-1.03 and 0.08-1.03
[3]
  FICI range: 0.27-2
